PubChem BioAssay AID504761 | Drosophila RNAi Screening Center – 2011
The screen tested about 22,000 reagents; this is a random part of those that have a named target and a result. Over the whole deposit, 116 (0.52%) are marked active. 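Calls depend on retest data that are not deposited; infection was ranked per plate without normalising between plates; the unit of the infection score is not given.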 Raw values vary from plate to plate and are shown uncorrected. The numbers tell different reagents against one gene apart. Not stated in the record: the amount of reagent, the time to read-out.

- Aim: 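Fly genes whose silencing reduces dengue virus type 2 infection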 (primary screen)
- Cell system: D.Mel-2 cells from Drosophila
- Knock-down reagent: long dsRNA against Drosophila genes
- Conditions: infection with dengue virus type 2; dose and infection time not stated
- Read-out: 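Per well on two replicate plates, imaging gave the percent of cells positive for viral envelope protein, ranked by infection, and a nuclear count of cells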
- Direction: infection score: higher = more virus-infected cells; cell count: higher = more cells in the well
- Active means: 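Very low infection ranking in both replicate wells (chance probability at most 0.065), then a retest showing infection dropped 1.5-fold or more at p below 0.05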
- Calls: active = confirmed: knock-down lowers infection; inactive = not picked or not confirmed

| predicted target | reagent | infection score, replicate 1 | infection score, replicate 2 | cell count, replicate 1 | cell count, replicate 2 | call |
| --- | --- | --- | --- | --- | --- | --- |
| CG7691 | 1 | 6.66 | 3.23 | 2971 | 6881 | inactive |
| CG17486 | 1 | 11.1 | 17.2 | 5259 | 3212 | inactive |
| CG12590 | 1 | 9.73 | 6.32 | 6022 | 6818 | inactive |
| CG11843 | 1 | 5.18 | 8.66 | 6563 | 5462 | inactive |
| Pus10 (Pseudouridine synthase 10) | 1 | 17.6 | 28 | 5176 | 4744 | inactive |
| l(3)87Df (lethal (3) 87Df) | 1 | 1.05 | 3.58 | 6754 | 6648 | inactive |
| Stim (Stromal interaction molecule) | 1 | 6.28 | 14.5 | 6623 | 5377 | inactive |
| CG15754 | 1 | 0.9 | 1.47 | 6118 | 6544 | inactive |
| CG15754 | 2 | 2.49 | 9.81 | 6665 | 6246 | inactive |
| Iswi (Imitation SWI) | 1 | 7.73 | 8.28 | 6196 | 5736 | inactive |
| Iswi (Imitation SWI) | 2 | 9.03 | 0.99 | 6035 | 6232 | inactive |
| Jhbp14 (Juvenile hormone binding protein 14) | 1 | 4.5 | 2 | 6310 | 6448 | inactive |
| CG10801 | 1 | 3.23 | 1.02 | 6973 | 6076 | inactive |
| Snx27 (Sorting nexin 27) | 1 | 11.4 | 10.7 | 6142 | 6271 | inactive |
| Snx27 (Sorting nexin 27) | 2 | 7.98 | 5.42 | 6595 | 6846 | inactive |
| Snx27 (Sorting nexin 27) | 3 | 5.73 | 14.7 | 6452 | 6572 | inactive |
| mtrm (matrimony) | 1 | 1.91 | 15.8 | 5662 | 5505 | inactive |
| CG17108 | 1 | 5.53 | 2.19 | 6350 | 6569 | inactive |
| CG17108 | 2 | 6.69 | 1.78 | 6521 | 6340 | inactive |
| CG17108 | 3 | 3.51 | 4.41 | 5957 | 6104 | inactive |
| RacGAP84C (Rac GTPase activating protein at 84C) | 1 | 3.67 | 22.9 | 6591 | 4936 | inactive |
| Karl | 1 | 8.63 | 6.05 | 6789 | 6512 | inactive |
| Ilp8 (Insulin-like peptide 8) | 1 | 2.12 | 1.95 | 6335 | 6860 | inactive |
| bin (biniou) | 1 | 2.87 | 12.1 | 6331 | 6277 | inactive |
| bin (biniou) | 2 | 1.43 | 4.76 | 6699 | 6402 | inactive |
| Cpr64Aa (Cuticular protein 64Aa) | 1 | 4.94 | 1.32 | 5607 | 5587 | inactive |
| Cpr64Aa (Cuticular protein 64Aa) | 2 | 2.27 | 1.51 | 6091 | 6015 | inactive |
| pck (pickel) | 1 | – | 27.1 | – | 5345 | inactive |
| Prosalpha3 (Proteasome alpha3 subunit) | 1 | 4.37 | 5.03 | 1808 | 1570 | inactive |
| tobi (target of brain insulin) | 1 | 7.1 | 9.04 | 6096 | 6217 | inactive |
| Urod (Uroporphyrinogen decarboxylase) | 1 | 4.18 | 7.33 | 6835 | 7091 | inactive |
| Urod (Uroporphyrinogen decarboxylase) | 2 | 14.1 | 9.26 | 6178 | 6157 | inactive |
| Cyp40 (Cyclophilin 40) | 1 | 10.2 | 1.74 | 6486 | 6597 | inactive |
| Cyp40 (Cyclophilin 40) | 2 | 17.9 | 5.32 | 5250 | 1335 | inactive |
| Klp64D (Kinesin-like protein at 64D) | 1 | 4.73 | 2.36 | 6132 | 6221 | inactive |
| CG13855 | 1 | 12.9 | 13.1 | 5472 | 5734 | inactive |
| CG13855 | 2 | 7.05 | 4.34 | 6255 | 5897 | inactive |
| CG15333 | 1 | 27 | 26.7 | 4446 | 3086 | inactive |
| CG15333 | 2 | 17.3 | 7.72 | 5177 | 4610 | inactive |
